Laboratory results: paper PMC5988308, “Rhodanine derivatives as potent anti-HIV and anti-HSV microbicides” (PLoS ONE, 2018)

Legend:
Format in all cases: cell-based
[1] = test system: HSV-2 acyclovir resistant; experiment: HSV-2 acyclovir resistant plaque reduction assay on Vero cells
Protocol: (§1) Clinical isolates of HSV-1 and HSV-2 were kindly provided by Prof. M. Pistello, University of Pisa, Italy. HSV-1 and HSV-2 strains were propagated and titrated by plaque assay on Vero cells. A HSV-2 strain with phenotypic resistance to acyclovir was generated by serial passage in the presence of increasing concentrations of acyclovir, as previously described.
The effect of the rhodanine derivatives on HSV infection was evaluated by plaque reduction assay. Vero cells were pre-plated 24 h in advance in 24-well plates at a density of […]. Increasing concentrations of compounds were mixed with HSV-2 (MOI 0.001 pfu/cell) or HSV-2 acyclovir resistant (MOI 0.001) or HSV-1 (MOI 0.0005) or and incubated for 1 hour at 37°C. The mixtures were subsequently added to the cells, which were then incubated at 37°C for 2 h. […] After further incubation at 37°C for 24 h (HSV-2 and HSV-2 R Acy) or 48 h (HSV-1), cells were fixed and stained with 0.1% crystal violet in 20% ethanol and viral plaques counted. […] The selectivity index (SI) was calculated by dividing the CC50 by the EC50 value.
All results are presented as the mean values from three independent experiments. The EC50 values for inhibition curves were calculated by regression analysis using the software GraphPad Prism (GraphPad Software, San Diego, California, U.S.A.) by fitting a variable slope-sigmoidal dose–response curve. […]

[2] = test system: HSV-1; experiment: HSV-1 plaque reduction assay on Vero cells
Protocol: as §1
The effect of the rhodanine derivatives on HSV infection was evaluated by plaque reduction assay. Vero cells were pre-plated 24 h in advance in 24-well plates at a density of […]. Increasing concentrations of compounds were mixed with HSV-2 (MOI 0.001 pfu/cell) or HSV-2 acyclovir resistant (MOI 0.001) or HSV-1 (MOI 0.0005) or and incubated for 1 hour at 37°C. The mixtures were subsequently added to the cells, which were then incubated at 37°C for 2 h. The virus inoculum was then removed and the cells washed and overlaid with a medium containing 1.2% methylcellulose (Sigma). After further incubation at 37°C for 24 h (HSV-2 and HSV-2 R Acy) or 48 h (HSV-1), cells were fixed and stained with 0.1% crystal violet in 20% ethanol and viral plaques counted. The effective concentration producing 50% reduction (EC50) and 90% reduction (EC90) in plaque formation was determined using Prism software by comparing drug-treated with wells treated with medium and solvent. The selectivity index (SI) was calculated by dividing the CC50 by the EC50 value.
All results are presented as the mean values from three independent experiments. The EC50 values for inhibition curves were calculated by regression analysis using the software GraphPad Prism (GraphPad Software, San Diego, California, U.S.A.) by fitting a variable slope-sigmoidal dose–response curve. Acyclovir was purchased from Sigma Aldrich (Milan, Italy).

[3] = test system: HIV-1 AD8 (CCR5-tropic strain); experiment: Antiviral activity on TZM-bl cells infected with HIV-1 AD8 (CPRG assay); conditions: EC50 with FBS / EC50 without
[4] = test system: HIV-1 NL4.3 (CXCR4-tropic strain); experiment: Antiviral activity on TZM-bl cells infected with HIV-1 NL4.3 (CPRG assay); conditions: EC50 with FBS / EC50 without
Protocol: After 48 h of incubation, the medium was removed and viral infection was quantified using a β-galactosidase (CPRG) assay (Roche). Twenty thousand TZM-bl cells/well were seeded in 96-well plates in complete DMEM supplemented with 30 μg/mL DEAE-dextran (Sigma-Aldrich). […] Vehicle (0.1% dimethyl sulfoxide [DMSO])-treated cells served as a negative control. […] After 2 days, viral infection was quantified using a CPRG assay (Roche). […] To evaluate the cell toxicity of the compounds, the metabolic XTT [2,3-bis-(2-methoxy-4-nitro-5-sulfophenyl)-2H-tetrazolium-5-carboxanilide] test (Sigma-Aldrich) was performed according to the manufacturer’s instructions.

| SMILES | SI, HSV-2 acyclovir resistant [1] | SI, HSV-1 [2] | AD8 ratio (fold change with/without FBS) [3] | NL4-3 ratio (fold change with/without FBS) [4] | times less active on HSV-1 with respect to HSV-2 [2] |
| --- | --- | --- | --- | --- | --- |
| Nc1nc2c(ncn2COCCO)c(=O)[nH]1 [ACV, Acyclovir, reference compound] | 22.93 | 4155 | – | – | – |
| O=C(O)c1ccc(-c2ccc(/C=C3\SC(=S)N(Cc4ccc(F)cc4)C3=O)o2)cc1O [Compound 1] | – | – | 43 | 64 and 64.3 | – |
| O=C(O)c1ccc(-c2ccc(/C=C3\SC(=S)N(Cc4ccc(Cl)cc4)C3=O)o2)cc1O [Compound 2] | >10,400 | > 752.7 | 90 and 93.8 | 44 | about 10 times |
| O=C(O)c1ccc(-c2ccc(/C=C3\SC(=S)N(CCc4ccc(F)cc4)C3=O)o2)cc1O [Compound 9a, (Z)-4-(5-((3-(4-fluorophenethyl)-4-oxo-2-thioxothiazolidin-5-ylidene)methyl)furan-2-yl)-2-hydroxybenzoic acid] | – | – | 15.3 | 37.8 | – |
| Cc1ccc(CCN2C(=O)/C(=C/c3ccc(-c4ccc(C(=O)O)c(O)c4)o3)SC2=S)cc1 [Compound 9b, (Z)-2-hydroxy-4-(5-((3-(4-methylphenethyl)-4-oxo-2-thioxothiazolidin-5-ylidene)methyl)furan-2-yl)benzoic acid] | – | – | 8.7 | 20 | – |
| O=C(O)c1ccc(-c2ccc(/C=C3\SC(=S)N(CCCc4ccccc4)C3=O)o2)cc1O [Compound 9c, (Z)-2-hydroxy-4-(5-((4-oxo-3-(3-phenylpropyl)-2-thioxothiazolidin-5-ylidene)methyl)furan-2-yl)benzoic acid] | – | – | 13.8 | 29.9 | – |
| CCc1ccc(CCN2C(=O)/C(=C/c3ccc(-c4ccc(C(=O)O)c(O)c4)o3)SC2=S)cc1 [Compound 9d, (Z)-4-(5-((3-(4-ethylphenethyl)-4-oxo-2-thioxothiazolidin-5-ylidene)methyl)furan-2-yl)-2-hydroxybenzoic acid] | – | – | 5 | 10.3 | – |
| O=C(O)c1ccc(-c2ccc(/C=C3\SC(=S)N(c4ccc(F)c(Cl)c4)C3=O)o2)cc1O [Compound 9e, (Z)-4-(5-((3-(3-chloro-4-fluorophenyl)-4-oxo-2-thioxothiazolidin-5-ylidene)methyl)furan-2-yl)-2-hydroxybenzoic acid] | – | – | 15 | 15 | – |
| O=C(O)c1ccc(-c2ccc(/C=C3\SC(=S)N(Cc4ccc(Cl)c(F)c4)C3=O)o2)cc1O [Compound 9f, (Z)-4-(5-((3-(4-chloro-3-fluorobenzyl)-4-oxo-2-thioxothiazolidin-5-ylidene)methyl)furan-2-yl)-2-hydroxybenzoic acid] | – | – | 28 | 34 | – |

Where “and” joins values, the source holds several entries; their conditions need not be identical. Equal entries are not always repeated.
